A mixed list of measured activities; the numbers were collected in NIAID ChemDB.

Common to all: tests in culture; agent: Herpes simplex virus 2; endpoint: MIC

Two numbers with a dash give a range or band. Conditions beyond the fields shown may differ between rows. Blank or dashed fields: not listed here.

smiles,strain or isolate,value
CCCc1cn([C@@H]2O[C@H](CO)[C@@H](O)[C@@H]2O)c(=O)[nH]c1=O,MS,320 µg/mL
CCc1nc(CC(=O)NN=C(C)C)nn1CC,G,>400 µg/mL
O=c1[nH]c(=O)n([C@H]2C[C@H](O)[C@@H](CO)O2)cc1I,-,3.2 µg/mL
Nc1ncnc2c1ncn2[C@@H]1C[C@H](CO)[C@@H](O)[C@@H]1O,MS,10 µg/mL
N=c1c2ncn([C@@H]3O[C@H](COP(=O)(O)O)[C@@H](O)[C@@H]3O)c2ncn1O,-,1–10 µg/mL
Nc1nccc2c1ncn2[C@@H]1CC[C@@H](O)[C@H]1O,G,>400 µg/mL
Cc1nc(CC(=O)NN)nn1C,G,>400 µg/mL
CCC(=O)C(CCCc1ccc(O)cc1)C(=O)CC,-,>50 µg/mL
Nc1ccn([C@@H]2O[C@H](CO)[C@@H](O)[C@@H]2O)c(=O)n1,E304,4.4 µg/mL
Nc1nc2c(ccn2[C@@H]2C[C@H](CO)[C@@H](O)[C@@H]2O)c(=O)[nH]1,-,25 µg/mL
O=c1[nH]c(=O)n([C@H]2C[C@H](O)[C@@H](CO)O2)cc1I,MS,3.2 µg/mL
O=P1(O)OCC2O[C@@H](n3cnc4c(=S)nc[nH]c43)[C@H](O)C2O1,MS,3.2 µg/mL
CCSC1NN=C(Cc2nc(C)n(C)n2)N1c1ccccc1,G,80 µg/mL
Nc1ncnc2c1ncn2[C@@H]1CC[C@@H](O)[C@H]1O,G,>400 µg/mL
C=Cc1cn([C@@H]2O[C@H](CO)[C@@H](O)[C@@H]2O)c(=O)[nH]c1=O,-,1 µg/mL
NNC(=O)Cc1nc2n(n1)CCCCC2,G,>400 µg/mL
Nc1ncnc2c1ncn2C[C@@H](CO)OCP(=O)(O)O,-,4 µg/mL
CCn1nc(Cc2n[nH]c(=S)o2)nc1C,G,>400 µg/mL
O=P1(O)OCC2O[C@@H](n3cnc4c(SCc5ccccc5)ncnc43)[C@H](O)C2O1,MS,10 µg/mL

For reference, 2 entries again:

smiles	strain or isolate	value
N=c1c2ncn([C@@H]3O[C@H](COP(=O)(O)O)[C@@H](O)[C@@H]3O)c2ncn1O	-	1–10 µg/mL
C=Cc1cn([C@@H]2O[C@H](CO)[C@@H](O)[C@@H]2O)c(=O)[nH]c1=O	-	1 µg/mL